From ChEMBL document CHEMBL1145117, “Structures and cytotoxic properties of trichoverroids and their macrolide analogues produced by saltwater culture of Myrothecium verrucaria” (J Med Chem, 2003)

What was measured:
MC-38 [1] = test: Selectivity was evaluated against Murine tumor ZC38 colon adenocarcinoma cell lines- ZL1210 lymphocytic leukemia cell lines at a concentration of 0.78 ug/mL; conditions: Mus musculus
NCI-H125 [2] = test: Selectivity was evaluated against human ZH125 lung non small cell carcinoma cell lines-CEM lymphocytic leukemia cell lines at a concentration of 0.78 ug/mL
Homo sapiens = organism: Homo sapiens; test: Activity relative to compound 3 (set to 1.0) was evaluated against H116 colon tumor cell lines; format: functional
Method in brief: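 Disk diffusion soft agar colony formation assay on human H116 colon tumor cells, with 15 µL of sample applied to a disk and zone units read. Relative activity = (dilution required for 500 zone units × 100)/(mg/mL), normalised to a reference compound set at 1.0.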

L1210 [3] = test: Selectivity was evaluated murine tumor against ZL1210 lymphocytic leukemia cell lines- ZCFU-GM normal bone marrow cell lines at a concentration of 0.78 ug/mL; conditions: Mus musculus
colon [4] = test: Selectivity was evaluated against human ZH116 colon cell lines-CEM lymphocytic leukemia cell lines at a concentration of 0.78 ug/mL
MC-38 [5] = test: Selectivity was evaluated against murine tumor ZC38 colon adenocarcinoma cell lines- ZCFU-GM normal bone marrow cell lines at a concentration of 0.78 ug/mL; conditions: Mus musculus
MC-38 [6] = test: Selectivity was evaluated against murine tumor ZC38 colon adenocarcinoma cell lines- ZCFU-GM normal bone marrow cell lines at a concentration of 30 ug/mL; conditions: Mus musculus
NCI-H125 [7] = test: Selectivity was evaluated against human ZH125 lung non small cell carcinoma cell lines-CEM lymphocytic leukemia cell lines at a concentration of 30 ug/mL
MC-38 [8] = test: Selectivity was evaluated against Murine tumor ZC38 colon adenocarcinoma cell lines- ZL1210 lymphocytic leukemia cell lines at a concentration of 30 ug/mL; conditions: Mus musculus
L1210 [9] = test: Selectivity was evaluated murine tumor against ZL1210 lymphocytic leukemia cell lines- ZCFU-GM normal bone marrow cell lines at a concentration of 30 ug/mL; conditions: Mus musculus
colon [10] = test: Selectivity was evaluated against human ZH116 colon cell lines-CEM lymphocytic leukemia cell lines at a concentration of 30 ug/mL
MC-38 [11] = test: Selectivity was evaluated against murine tumor ZC38 colon adenocarcinoma cell lines- ZCFU-GM normal bone marrow cell lines at a concentration of 0.14 ug/mL; conditions: Mus musculus
MC-38 [12] = test: Selectivity was evaluated against Murine tumor ZC38 colon adenocarcinoma cell lines- ZL1210 lymphocytic leukemia cell lines at a concentration of 0.14 ug/mL; conditions: Mus musculus
L1210 [13] = test: Selectivity was evaluated murine tumor against ZL1210 lymphocytic leukemia cell lines- ZCFU-GM normal bone marrow cell lines at a concentration of 0.14 ug/mL; conditions: Mus musculus
colon [14] = test: Selectivity was evaluated against human ZH116 colon cell lines-CEM lymphocytic leukemia cell lines at a concentration of 0.14 ug/mL
NCI-H125 [15] = test: Selectivity was evaluated against human ZH125 lung non small cell carcinoma cell lines-CEM lymphocytic leukemia cell lines at a concentration of 0.14 ug/mL
NCI-H125 [16] = test: Selectivity was evaluated against human ZH125 lung non small cell carcinoma cell lines-CEM lymphocytic leukemia cell lines at a concentration of 8.6 ug/mL
L1210 [17] = test: Selectivity was evaluated murine tumor against ZL1210 lymphocytic leukemia cell lines- ZCFU-GM normal bone marrow cell lines at a concentration of 8.6 ug/mL; conditions: Mus musculus
MC-38 [18] = test: Selectivity was evaluated against murine tumor ZC38 colon adenocarcinoma cell lines- ZCFU-GM normal bone marrow cell lines at a concentration of 8.6 ug/mL; conditions: Mus musculus
MC-38 [19] = test: Selectivity was evaluated against Murine tumor ZC38 colon adenocarcinoma cell lines- ZL1210 lymphocytic leukemia cell lines at a concentration of 8.6 ug/mL; conditions: Mus musculus
colon [20] = test: Selectivity was evaluated against human ZH116 colon cell lines-CEM lymphocytic leukemia cell lines at a concentration of 8.6 ug/mL
MC-38 [21] = test: Selectivity was evaluated against Murine tumor ZC38 colon adenocarcinoma cell lines- ZL1210 lymphocytic leukemia cell lines at a concentration of 163 ug/mL; conditions: Mus musculus
L1210 [22] = test: Selectivity was evaluated murine tumor against ZL1210 lymphocytic leukemia cell lines- ZCFU-GM normal bone marrow cell lines at a concentration of 163 ug/mL; conditions: Mus musculus
MC-38 [23] = test: Selectivity was evaluated against murine tumor ZC38 colon adenocarcinoma cell lines- ZCFU-GM normal bone marrow cell lines at a concentration of 163 ug/mL; conditions: Mus musculus
colon [24] = test: Selectivity was evaluated against human ZH116 colon cell lines-CEM lymphocytic leukemia cell lines at a concentration of 163 ug/mL
NCI-H125 [25] = test: Selectivity was evaluated against human ZH125 lung non small cell carcinoma cell lines-CEM lymphocytic leukemia cell lines at a concentration of 163 ug/mL
MC-38 [26] = test: Selectivity was evaluated against murine tumor ZC38 colon adenocarcinoma cell lines- ZCFU-GM normal bone marrow cell lines at a concentration of 41 ug/mL; conditions: Mus musculus
NCI-H125 [27] = test: Selectivity was evaluated against human ZH125 lung non small cell carcinoma cell lines-CEM lymphocytic leukemia cell lines at a concentration of 41 ug/mL
L1210 [28] = test: Selectivity was evaluated murine tumor against ZL1210 lymphocytic leukemia cell lines- ZCFU-GM normal bone marrow cell lines at a concentration of 41 ug/mL; conditions: Mus musculus
colon [29] = test: Selectivity was evaluated against human ZH116 colon cell lines-CEM lymphocytic leukemia cell lines at a concentration of 41 ug/mL
L1210 [30] = test: Selectivity was evaluated murine tumor against ZL1210 lymphocytic leukemia cell lines- ZCFU-GM normal bone marrow cell lines at a concentration of 175 ug/mL; conditions: Mus musculus
NCI-H125 [31] = test: Selectivity was evaluated against human ZH125 lung non small cell carcinoma cell lines-CEM lymphocytic leukemia cell lines at a concentration of 175 ug/mL
MC-38 [32] = test: Selectivity was evaluated against murine tumor ZC38 colon adenocarcinoma cell lines- ZCFU-GM normal bone marrow cell lines at a concentration of 175 ug/mL; conditions: Mus musculus
colon [33] = test: Selectivity was evaluated against human ZH116 colon cell lines-CEM lymphocytic leukemia cell lines at a concentration of 175 ug/mL
MC-38 [34] = test: Selectivity was evaluated against Murine tumor ZC38 colon adenocarcinoma cell lines- ZL1210 lymphocytic leukemia cell lines at a concentration of 175 ug/mL; conditions: Mus musculus
MC-38 [35] = test: Selectivity was evaluated against murine tumor ZC38 colon adenocarcinoma cell lines- ZCFU-GM normal bone marrow cell lines at a concentration of 1.3 ug/mL; conditions: Mus musculus
L1210 [36] = test: Selectivity was evaluated murine tumor against ZL1210 lymphocytic leukemia cell lines- ZCFU-GM normal bone marrow cell lines at a concentration of 1.3 ug/mL; conditions: Mus musculus
colon [37] = test: Selectivity was evaluated against human ZH116 colon cell lines-CEM lymphocytic leukemia cell lines at a concentration of 1.3 ug/mL
MC-38 [38] = test: Selectivity was evaluated against Murine tumor ZC38 colon adenocarcinoma cell lines- ZL1210 lymphocytic leukemia cell lines at a concentration of 1.3 ug/mL; conditions: Mus musculus
NCI-H125 [39] = test: Selectivity was evaluated against human ZH125 lung non small cell carcinoma cell lines-CEM lymphocytic leukemia cell lines at a concentration of 1.3 ug/mL
L1210 [40] = test: Selectivity was evaluated murine tumor against ZL1210 lymphocytic leukemia cell lines- ZCFU-GM normal bone marrow cell lines at a concentration of 0.90 ug/mL; conditions: Mus musculus
NCI-H125 [41] = test: Selectivity was evaluated against human ZH125 lung non small cell carcinoma cell lines-CEM lymphocytic leukemia cell lines at a concentration of 0.90 ug/mL
colon [42] = test: Selectivity was evaluated against human ZH116 colon cell lines-CEM lymphocytic leukemia cell lines at a concentration of 0.90 ug/mL
MC-38 [43] = test: Selectivity was evaluated against murine tumor ZC38 colon adenocarcinoma cell lines- ZCFU-GM normal bone marrow cell lines at a concentration of 0.90 ug/mL; conditions: Mus musculus
MC-38 [44] = test: Selectivity was evaluated against Murine tumor ZC38 colon adenocarcinoma cell lines- ZL1210 lymphocytic leukemia cell lines at a concentration of 0.90 ug/mL; conditions: Mus musculus

CC1=C[C@H]2O[C@@H]3C[C@H]4OC(=O)/C=C\C=C\C(=O)OCC[C@@H](C)[C@H](O)C(=O)OC[C@@]2(CC1)[C@]4(C)[C@]31CO1 [VERRUCARIN A]
Selectivity (MC-38 [1]): -300 zone unit
Selectivity (NCI-H125 [2]): -200 zone unit
Relative activity (Homo sapiens): 692
Selectivity (L1210 [3]): 350 zone unit
Selectivity (colon [4]): -200 zone unit
Selectivity (MC-38 [5]): 50 zone unit

CC1=C[C@H]2O[C@@H]3[C@H](O)[C@H]4OC(=O)/C=C\C=C\C(=O)OCC/C(C)=C/C(=O)OC[C@@]2(CC1)[C@]4(C)[C@]31CO1 [VERRUCARRIN M]
Selectivity (MC-38 [6]): -50 zone unit
Selectivity (NCI-H125 [7]): -50 zone unit
Relative activity (Homo sapiens): 19
Selectivity (MC-38 [8]): 150 zone unit
Selectivity (L1210 [9]): -200 zone unit
Selectivity (colon [10]): -50 zone unit

CC1=C[C@H]2O[C@@H]3[C@H](O)[C@H]4OC(=O)/C=C\C=C\[C@H]([C@@H](C)O)OCC/C(C)=C/C(=O)OC[C@@]2(CC1)[C@]4(C)[C@]31CO1
Selectivity (MC-38 [11]): -50 zone unit
Relative activity (Homo sapiens): 392
Selectivity (MC-38 [12]): -300 zone unit
Selectivity (L1210 [13]): 250 zone unit
Selectivity (colon [14]): 0 zone unit
Selectivity (NCI-H125 [15]): 50 zone unit

CC1=C[C@H]2O[C@@H]3C[C@H]4OC(=O)/C=C\C=C\[C@H]([C@H](C)O)OCC/C(C)=C/C(=O)OC[C@@]2(CC1)[C@]4(C)[C@]31CO1
Selectivity (NCI-H125 [16]): > -150 zone unit
Relative activity (Homo sapiens): 256
Selectivity (L1210 [17]): 550 zone unit
Selectivity (MC-38 [18]): 0 zone unit
Selectivity (MC-38 [19]): -550 zone unit
Selectivity (colon [20]): > -150 zone unit

CC1=C[C@H]2OC3C[C@@H](OC(=O)/C=C\C=C\[C@H](O)[C@H](C)O)[C@](C)([C@@]2(COC(=O)/C=C(\C)CCO)CC1)[C@]31CO1 [TRICHOVERRIN A]
Selectivity (MC-38 [21]): -500 zone unit
Selectivity (L1210 [22]): 300 zone unit
Relative activity (Homo sapiens): 3
Selectivity (MC-38 [23]): -200 zone unit
Selectivity (colon [24]): -50 zone unit
Selectivity (NCI-H125 [25]): -100 zone unit

CC1=C[C@H]2O[C@@H]3[C@H](O)[C@H]4OC(=O)/C=C\C=C\[C@@H]5O[C@H](C/C(C)=C/C(=O)OC[C@@]2(CC1)[C@]4(C)[C@]31CO1)O[C@H]5C [RORIDIN M]
Selectivity (MC-38 [26]): 100 zone unit
Selectivity (NCI-H125 [27]): -100 zone unit
Relative activity (Homo sapiens): 14
Selectivity (L1210 [28]): 100 zone unit
Selectivity (colon [29]): -150 zone unit

CC1=C[C@H]2OC3C[C@@H](OC(=O)/C=C\C=C\[C@H](O)[C@@H](C)O)[C@](C)([C@@]2(COC(=O)/C=C(\C)CCO)CC1)[C@]31CO1 [TRICHOVERRIN B]
Selectivity (L1210 [30]): 600 zone unit
Selectivity (NCI-H125 [31]): -100 zone unit
Relative activity (Homo sapiens): 6
Selectivity (MC-38 [32]): 300 zone unit
Selectivity (colon [33]): -150 zone unit
Selectivity (MC-38 [34]): -300 zone unit

CC1=C[C@H]2O[C@@H]3[C@H](O)[C@H]4OC(=O)/C=C\C=C\[C@H]([C@H](C)O)OCC/C(C)=C/C(=O)OC[C@@]2(CC1)[C@]4(C)[C@]31CO1 [RORIDIN L]
Relative activity (Homo sapiens): 632
Selectivity (MC-38 [35]): 0 zone unit
Selectivity (L1210 [36]): 400 zone unit
Selectivity (colon [37]): -100 zone unit
Selectivity (MC-38 [38]): -400 zone unit
Selectivity (NCI-H125 [39]): -50 zone unit

CC1=C[C@H]2O[C@@H]3C[C@H]4OC(=O)/C=C\C=C\[C@H]([C@@H](C)O)OCC[C@@H](C)[C@H](O)C(=O)OC[C@@]2(CC1)[C@]4(C)[C@]31CO1 [RORIDIN A]
Selectivity (MC-38 [1]): -300 zone unit
Selectivity (NCI-H125 [2]): -150 zone unit
Relative activity (Homo sapiens): 703
Selectivity (L1210 [3]): 350 zone unit
Selectivity (colon [4]): -100 zone unit
Selectivity (MC-38 [5]): 50 zone unit

CC1=C[C@H]2O[C@@H]3C[C@H]4OC(=O)/C=C\C=C\[C@H]([C@H](C)O)OCC[C@@H](C)[C@H](O)C(=O)OC[C@@]2(CC1)[C@]4(C)[C@]31CO1 [(6'R,13'S) ISORORIDIN A]
Selectivity (L1210 [40]): 450 zone unit
Selectivity (NCI-H125 [41]): -150 zone unit
Selectivity (colon [42]): -150 zone unit
Selectivity (MC-38 [43]): -50 zone unit
Relative activity (Homo sapiens): 1070
Selectivity (MC-38 [44]): -500 zone unit
